This note sets out measurements from ChEMBL document CHEMBL4000252, “Discovery of N-(2-aminoethyl)-N-benzyloxyphenyl benzamides: New potent Trypanosoma brucei inhibitors” (Bioorg Med Chem, 2017).

The assay relates to Trypanosoma brucei brucei. Kind of assay: Antiparasitic activity against Trypanosoma brucei brucei BF427 assessed as growth inhibition after 48 hrs by Alamar blue assay.

Some compounds may have been tested in ways that are not shown here.

A word on the EC50: it is the concentration needed to bring the measured effect to its halfway point. Regarding `O=C(c1ccc(Cl)cc1Cl)N(c1ccc(Cl)cc1)C1CCNCC1`, the EC50 is 4.11 µM.
